Data on one substance can be found in patent US20060167229A1, “Biologically active peptide conjugates” (priority 2002, published 2006).

The test system of this assay is IL-2. Description: T lymphocyte IL-2 secretion test (HT-2 cell bioassay of ConA supernatant). The note with it: healthy mice. It is filed as in vivo, BALB/c mice. Here is the method:
Spleen cells of density 1×10^6/ml were placed onto a 96 wells cell culture plate, 100 μL/well, three parallel wells each of the assay sample and control sample per mouse. To the assay wells, 100 μl/well ConA of 100 μg/ml in RPMI-1640 was added, and […] plain RPMI-1640 was used for the controls. The cells were incubated for 66 hrs at 37° C., 5% CO2. The cells were then pelleted by centrifugation at 150 g for 10 minutes. The supernatant was collected and stored at −20° C. for cytokines IL-2 and IFN determination.
HT-2 cells at log phase were collected by centrifugation at 150 g for 10 minutes, and washed three times with cold Hank's solution by re-suspension and centrifugation. The collected HT-2 cells were re-suspended in RPMI-1640 and incubated at 37° C., 5% CO2 for 30 minutes. The cells were further washed twice with RPMI-1640 by re-suspension and centrifugation, and re-suspended to final concentration of 2×10^5/ml with RPMI-1640.
The supernatant obtained in section 1.2 were diluted to the following percentage with RPMI-1640: 100%, 50%, 25%, 12.5%, 6.25%, and 3.125%.
rIL-2 was diluted to the following concentration with RPMI-1640: 500 IU/ml, 250 IU/ml, 125 IU/ml, 62.5 IU/ml, 31.25 IU/ml, and […].
The plate was incubated at 37° C., 5% CO2 for 68 hours, then centrifuged at 150 g for 15 minutes and the supernatant removed. 100 μl 0.5 mg/ml MTT in RPMI-1640 without phenolsulfonphthalein was added into each well. After shaking for 3-4 minutes to re-suspend the cells, continue to incubate for another 4 hours. Samples were then centrifuged at 150 g for 15 minutes and the supernatant was removed. To each well, 120 μl 40 mM HCl-2-propanol was added, mixed for 3-4 minutes and OD analyzed at 570 nm, referenced at 630 nm with an ELISA plate reader.
The average OD of the three parallel wells of each dilution was taken and plotted against concentration on a semi-log paper, concentration on the X-axis. The concentration at 50% OD saturation was obtained for both the testing supernatant and rIL-2.
Sample IL-2 activity=(sample dilution at 50% maximum action÷rIL-2 standard dilution at 50% maximum action)×activity of rIL-2 standard at 50% maximum action (IU/ml)

As to “IL-2: recombinant human IL (rhIL)-2, Shanghai Huaxin Biotech Inc.; positive control”, the “activity of T lymphocyte in secreting IL-2, X ± SD (IU)” value (from here on “activity of T lymphocyte … X ± SD (IU)”) (peptide 5 μg/kg/day i.p. 15 days (IFN-γ, IL-2 3×10^5 IU/kg/day), saline 37 ± 9) worked out at 77 ± 13 IU; the “activity of T lymphocyte … X ± SD (IU)” value (peptide 50 μg/kg/day i.p. 15 days (IFN-γ, IL-2 3×10^5 IU/kg/day), saline 39 ± 10) is on record as 72 ± 12 IU; the “activity of T lymphocyte … X ± SD (IU)” value (peptide 500 μg/kg/day i.p. 15 days (IFN-γ, IL-2 3×10^5 IU/kg/day), saline 39 ± 10) worked out at 70 ± 13 IU; the “activity of T lymphocyte … X ± SD (IU)” value (peptide 0.51 g/kg/day (so in the source) i.p. 15 days (IFN-γ, IL-2 3×10^5 IU/kg/day), saline 38 ± 13) is reported as 73 ± 13 IU.
